The results in this text go back to the supplement of paper PMC9262897, “Low-cost anti-mycobacterial drug discovery using engineered E. coli” (Nature Communications, 2022).

This assay relates to E. coli TESEC Mtb Alr. Briefly: growth (OD600 after 10 h); higher = more growth (less inhibition). To be noted: compound 0.1 mM. The protocol:
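TESEC Mtb Alr E. coli, or the Alr+ wild-type control, in 384-well plates with Prestwick library compounds at 0.1 mM and 1% DMSO, across arabinose induction levels of 1E3 to 1E7 nM. Growth is read as OD600 after 10 h at 37 °C in triplicate biological replicates.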

± gives the standard deviation of the averaged measurements. The entries are a selection whose mix differs from that of the whole data set.

For the compound `COc1cc(Br)c(C[N+]2(CCOCCC3CCC4CC3C4(C)C)CCOCC2)cc1OC` (stereo not given) [Pinaverium bromide], the growth is, setting by setting: (arabinose 1000 nM, raw OD600 reference: median of DMSO wells 0.294, cell-free background 0.041) 0.0406 ± 0.00087; (arabinose 10000 nM, raw OD600 reference: median of DMSO wells 0.264, cell-free background 0.041) 0.0406 ± 0.0013; (arabinose 100000 nM, raw OD600 reference: median of DMSO wells 0.201, cell-free background 0.041) 0.0416 ± 0.0008; (arabinose 1000000 nM, raw OD600 reference: median of DMSO wells 0.193, cell-free background 0.041) 0.03877 ± 0.00029; (arabinose 10000000 nM, raw OD600 reference: median of DMSO wells 0.146, cell-free background 0.041) 0.0405 ± 0.0007.
